Results reported in EPA's ToxValDB 9.5.

Test system: Mus musculus
Settings: acute; oral; mortality

CC(C)[C@H]1OC(=O)[C@H](Cc2ccccc2)N(C)C(=O)[C@@H](C(C)C)OC(=O)[C@H](Cc2ccccc2)N(C)C(=O)[C@@H](C(C)C)OC(=O)[C@H](Cc2ccccc2)N(C)C1=O [Beauvericin]
LD50: 100 mg/kg
